# According to US20030120073A1, “Alpha-ketocarboxylic acid based inhibitors of phosphoryl tyrosine phosphatases” (priority 2001, published 2003):
# Amino acid sequences for entries named in this document (tags omitted).
# UniProt P15273, whole entry: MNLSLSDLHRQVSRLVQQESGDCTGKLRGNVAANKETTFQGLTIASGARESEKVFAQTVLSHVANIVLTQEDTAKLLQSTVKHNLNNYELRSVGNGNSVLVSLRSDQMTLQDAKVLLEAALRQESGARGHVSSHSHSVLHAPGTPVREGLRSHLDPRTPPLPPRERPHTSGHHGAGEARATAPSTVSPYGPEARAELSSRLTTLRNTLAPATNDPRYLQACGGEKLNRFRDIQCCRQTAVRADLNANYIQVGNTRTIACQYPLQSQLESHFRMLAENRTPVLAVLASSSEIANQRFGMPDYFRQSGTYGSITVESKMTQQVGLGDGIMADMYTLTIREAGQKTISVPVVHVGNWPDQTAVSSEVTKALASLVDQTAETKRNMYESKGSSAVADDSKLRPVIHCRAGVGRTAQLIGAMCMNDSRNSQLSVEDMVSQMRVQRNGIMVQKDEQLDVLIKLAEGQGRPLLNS
# Biological target: Yersinia PTPase (Yersinia enterocolitica, UniProt P15273)
# Experiment: Yersinia PTPase assay (p-NPP hydrolysis, UV at 420 nm)
# Details: read-out: IC50 Yersinia PTPase; Table 2; average of two measurements; 2.5 mM p-NPP, pH 5.5, 10% DMSO
# Method: Yersinia and LAR PTPase Assays: The phosphatase activities of the Yersinia and LAR PTPases (purchased from Calbiochem) were assayed using p-NPP as the substrate and the reaction progress was monitored by UV spectroscopy. Initial rates were determined by monitoring the hydrolysis of p-NPP at 420 nm, from 10 to 120 s after mixing. Assay solutions contained 2.5 mM substrate, 1 mM EDTA, 100 mM NaCl, 100 mM acetate at pH 5.5, and 10% DMSO. IC50 values were calculated using a Dixon analysis. Data analysis was performed with the commercial graphing package Grafit (Erithacus Software Ltd.).
smiles,measurement,value
O=C(O)C(=O)c1ccc(OCc2ccc(COc3ccc(C(=O)C(=O)O)cc3)cc2)cc1,IC50,700 nM
